Patent US6177441A, “Treating red blood cell solutions with anti-viral agents” (Cerus Corporation, priority 1998, dated 2001)
Like-named read-outs stand apart in the source and are kept apart here.

Legend:
cell-free HIV = test: Cell-free HIV inactivation in the presence of red blood cells (Example 9); format: cell-based; conditions: 0 μg/ml 5.7
cell-associated HIV [1] = test: Cell-associated HIV inactivation in the presence of red blood cells (Example 9); format: cell-based, HIVIIIB; conditions: 0 μg/ml 5.5 (QM), 5.7 (ICR-170)
cell-associated HIV [2] = conditions: for Log Titer: no QM 5.5
[3] = test system: duck hepatitis B virus (DHBV); test: Inactivation of duck hepatitis B virus, slot blot and PCR in duck hepatocytes (Example 6); conditions: for DHBV inactivated: viral titer 6 logs per ml
[4] = 10 μg/ml QM, dilution 10^-3, 10 days, plates 53, 54

COc1ccc2nc3cc(Cl)ccc3c(NC(C)CCCN(CCCl)CCCl)c2c1.Cl.Cl (centres unmarked)
Log Titer (cell-free HIV; 20 μg/ml): 3.0 pfu/ml | Log Titer (cell-free HIV; 40 μg/ml): 0 pfu/ml | Log Titer (cell-free HIV; 80 μg/ml): 0 pfu/ml | Log Titer (cell-associated HIV [1]; 20 μg/ml): 3.6 | Log Titer (cell-associated HIV [1]; 40 μg/ml): 2.5 | Log Titer (cell-associated HIV [2]; 10 μg/ml): < 0.7 | Log Titer (cell-associated HIV [2]; 30 μg/ml): < 0.3 | Log Titer (cell-associated HIV [2]; 150 μg/ml): < 0.3 | cell-associated HIV inactivation (cell-associated HIV [2]; concentrations such as 10 μg/ml and below): inactivates cell-associated HIV | PCR Results ([3]; 10 μg/ml QM, dilution 10^-2, 1 day, plate 57): - | Blot Results ([3]; 10 μg/ml QM, dilution 10^-2, 1 day, plates 57, 58): -, - | PCR Results ([3]; 10 μg/ml QM, dilution 10^-2, 10 days, plate 60): + | Blot Results ([3]; 10 μg/ml QM, dilution 10^-2, 10 days, plates 59, 60): -, - | PCR Results ([3]; 10 μg/ml QM, dilution 10^-2, 15 days, plate 61): + | Blot Results ([3]; 10 μg/ml QM, dilution 10^-2, 15 days, plates 61, 62): -, - | Blot Results [3, 4]: -, - | PCR Results [3, 4]: -, - | PCR Results ([3]; 10 μg/ml QM, dilution 10^-3, 15 days, plate 56): - | Blot Results ([3]; 10 μg/ml QM, dilution 10^-3, 15 days, plates 55, 56): -, - | PCR Results ([3]; 10 μg/ml QM, dilution 10^-4, 10 days, plate 50): - | Blot Results ([3]; 10 μg/ml QM, dilution 10^-4, 10 days, plates 49, 50): -, - | Blot Results ([3]; 10 μg/ml QM, dilution 10^-4, 15 days, plates 51, 52): -, - | Blot Results ([3]; 10 μg/ml QM, dilution 10^-5, 10 days, plates 45, 46): -, - | Blot Results ([3]; 10 μg/ml QM, dilution 10^-5, 15 days, plates 47, 48): -, - | DHBV inactivated ([3]; 10 μg/ml QM): 4 logs per ml | PCR Results ([3]; 40 μg/ml QM, dilution 10^-1, 1 day, plate 40): - | Blot Results ([3]; 40 μg/ml QM, dilution 10^-1, 1 day, plates 39, 40): -, - | PCR Results ([3]; 40 μg/ml QM, dilution 10^-1, 10 days, plate 41): - | Blot Results ([3]; 40 μg/ml QM, dilution 10^-1, 10 days, plates 41, 42): -, - | PCR Results ([3]; 40 μg/ml QM, dilution 10^-1, 15 days, plate 43): - | Blot Results ([3]; 40 μg/ml QM, dilution 10^-1, 15 days, plates 43, 44): -, - | PCR Results ([3]; 40 μg/ml QM, dilution 10^-2, 10 days, plate 35): - | Blot Results ([3]; 40 μg/ml QM, dilution 10^-2, 10 days, plates 35, 36): -, - | PCR Results ([3]; 40 μg/ml QM, dilution 10^-2, 15 days, plate 37): - | Blot Results ([3]; 40 μg/ml QM, dilution 10^-2, 15 days, plates 37, 38): -, - | PCR Results ([3]; 40 μg/ml QM, dilution 10^-3, 10 days, plate 31): - | Blot Results ([3]; 40 μg/ml QM, dilution 10^-3, 10 days, plates 31, 32): -, - | PCR Results ([3]; 40 μg/ml QM, dilution 10^-3, 15 days, plate 33): - | Blot Results ([3]; 40 μg/ml QM, dilution 10^-3, 15 days, plates 33, 34): -, - | Blot Results ([3]; 40 μg/ml QM, dilution 10^-4, 10 days, plates 27, 28): -, - | Blot Results ([3]; 40 μg/ml QM, dilution 10^-4, 15 days, plates 29, 30): -, - | Blot Results ([3]; 40 μg/ml QM, dilution 10^-5, 10 days, plates 23, 24): -, - | Blot Results ([3]; 40 μg/ml QM, dilution 10^-5, 15 days, plates 25, 26): -, - | DHBV inactivated ([3]; 40 μg/ml QM): > 6 logs of DHBV per ml
